Measured values from several laboratories, pooled; numbers as filed in NIAID ChemDB.

Common to all: enzyme or target tests; species: HIV-1; protein: Reverse transcriptase; read-out: inhibition

Inhibition is in % at the dose shown (toxicity tests: loss of growth or viability). Rows are shuffled and stem from different studies. An empty or dashed field is not shown.

SMILES,strain or isolate,read by,dose,result
Cc1cc(C)c(S(=O)(=O)Oc2ccc3cccc(S(=O)(=O)O)c3c2)c(C)c1S(=O)(=O)Oc1ccc2cccc(S(=O)(=O)O)c2c1,,RT activity,50 µM,87%
CCc1cc(CCc2nc3ccccc3o2)c(=O)[nH]c1C,,radiometric,25 µM,30%
N=C1SC2C(=NN(c3ccccc3)C2c2ccccc2Cl)N1c1nc(-c2ccc(Cl)cc2)cs1,,RT activity / absorbance,100 µg/mL,62.77%
CCCCCCCCCCCCCCCCOCC(COC(=O)CCC(=O)OC1CC(COP(=O)(O)OC2CC(COP(=O)(O)OC3CC(CO)OC3n3cnc4c(N)ncnc43)OC2n2cnc3c(N)ncnc32)OC1n1cnc2c(N)ncnc21)OCCCCCCCCCCCCCCCC,,,300 µM,96%
CC1=C(O)C(C)(C)C(=O)C2=C1O[C@H](c1ccccc1)CC2=O,,RT activity / nucleotide incorporation / radiometric,200 µg/mL,64.1%
CCCCCCCCCCCCCCCC(=O)NCC1CC(OP(=O)(O)OCC2OC(n3cnc4c(N)ncnc43)C(OP(=O)(O)OCC3OC(n4cnc5c(N)ncnc54)C(O)C3O)C2O)C(n2cnc3c(N)ncnc32)O1,IIIB,RT activity,100 µM,61.9%
CCOC(CC(=O)OC)n1ccc(=O)[nH]c1=O,,ELISA,10 µM,65%
NC(=O)c1cc2c([nH]c3ccccc32)c(-c2ccc(CO)o2)n1,,ELISA,65.36 µM,26.57%
CCCCCCCCCCCCCCCC(=O)NC1C(COP(=O)(O)OC2CC(COP(=O)(O)OC3C(O)C(CO)OC3n3cnc4c(N)ncnc43)OC2n2cnc3c(N)ncnc32)OC(n2cnc3c(N)ncnc32)C1O,,,100 µM,50%
C/C1=C\C=C\C2(C)C=C(CO[C@H]3O[C@H](CO)[C@H](O)[C@H](O)[C@H]3O)C(C)CC23OC([O-])C(C3=O)C(O)/C=C/C2(C)C=C(C=O)C(C)CC23OC([O-])C(C3=O)C(O)/C(C)=C/C=C/C2C=C(CO[C@H]3O[C@H](CO)[C@H](O)[C@H](O)[C@H]3O)C(C)CC23OC([O-])C(C3=O)C(O)/C=C/C2(C)C=C(C=O)C(C)CC23OC([O-])C(C3=O)C1O,IIIB,RT activity,100 µg/mL,39.2%
CCN1c2ncc(CCc3ccccc3)cc2-c2nnsc2-c2cccnc21,,nucleotide incorporation,1 µM,96%
O=C(O)C1=C[C@@H](O)[C@@H](O)[C@H](OC(=O)c2cc(O)c(O)c(O)c2)C1,,nucleotide incorporation,20 µg/mL,0%
NCC1OC(n2cnc3c(N)ncnc32)C(OP(=O)(O)OCC2OC(n3cnc4c(N)ncnc43)C(OP(=O)(O)OCC3OC(n4cnc5c(N)ncnc54)C(O)C3O)C2O)C1O,IIIB,RT activity,100 µM,77.5%
CC(=O)O[C@]1(C)/C=C/C[C@@H](C)/C=C/[C@@]2(C)CC[C@@H](C(C)(C)O)[C@@H]2[C@@H](O)C1,,nucleotide incorporation / radiometric,40 µM,22%
N=C1SC2C(=NN(c3ccccc3)C2c2ccccc2Br)N1c1nc(-c2ccc(Cl)cc2)cs1,,RT activity / absorbance,100 µg/mL,90.57%
CCOC(CC(=O)OCC(C)C)n1ccc(=O)[nH]c1=O,,ELISA,10 µM,46%
CCN1c2ncccc2-c2nnsc2-c2cccnc21,,nucleotide incorporation,1 µM,91%
C=C(C)C1C=C[C@@H](OC(=O)c2cccnc2)C23COC(C)(C(=O)[C@@]4(OC(C)=O)C[C@H](C)[C@H](OC(=O)CCC)C4[C@H]2OC(=O)CC)C13,,nucleotide incorporation,200 µg/mL,93.1%
O=S(=O)(O)c1cc(S(=O)(=O)O)c2cc(NS(=O)(=O)c3ccc(-c4ccc(S(=O)(=O)Nc5ccc6cc(S(=O)(=O)O)cc(S(=O)(=O)O)c6c5)cc4)cc3)ccc2c1,,RT activity,50 µM,99.1%
C[C@@H](Cc1c[nH]c2ccccc12)NC(=O)CCn1c(=O)[nH]c2ccccc2c1=O,,nucleotide incorporation / fluorescence,100 µM,27%
C=C(C)C1C=C[C@@H](OC(=O)c2cccnc2)C23COC(C)(C(=O)[C@@]4(OC(C)=O)C[C@H](C)[C@H](OC(=O)CC)C4[C@H]2OC(=O)CCC)C13,,nucleotide incorporation,200 µg/mL,5.46%
O=C(O)/C=C\C(=O)O.O=C(c1ccccc1)N1CCN(C(=O)c2ccc(Nc3ccnc4cc(C(F)(F)F)ccc34)cc2)CC1,,nucleotide incorporation,100 µM,36%
CCO[P+](O)(OCC)[C@@H]1C[C@H](C[N+]2=CC(F)C(=O)NC2=O)N(C)O1,,RT activity,90 µM,100%
COc1ccc(S(=O)(=O)N2CCN(C(=O)c3ccc(Nc4ccnc5cc(C(F)(F)F)ccc45)cc3)CC2)cc1,,nucleotide incorporation,100 µM,27%
Cc1ccc2c(c1)N(C)C(=O)c1ccnnc1O2,,ELISA,33 µM,16%
CCCCCCCCCCCCCCCC(=O)NC1C(COP(=O)(O)OC2CC(COP(=O)(O)OC3CC(CO)OC3n3cnc4c(N)ncnc43)OC2n2cnc3c(N)ncnc32)OC(n2cnc3c(N)ncnc32)C1O,,,100 µM,54%
Oc1ccccc1C=NCCN=Cc1ccccc1O,,ELISA,6 µM,39%
O=C1C2=C(SCCS2)C(=O)N1CC(O)CN1CCN(c2ccc(F)cc2)CC1,,RT activity,200 µg/mL,82.2%
COc1ccc2c(c1)N(C)C(=O)c1ccnnc1O2,,ELISA,33 µM,18%
C=CCOCc1cn(C2CCON2C(=O)OCc2ccccc2)c(=O)[nH]c1=O,,RT activity,0.1 µM,100%
CCCCCCCCCCCCCCCC(=O)Nc1ccc(S(=O)(=O)O)c2cccc(S(=O)(=O)O)c12,,RT activity,50 µM,99.84%
COc1cc(NC(C)CCCNCc2cc(Nc3ccnc4cc(Cl)ccc34)cc(CN3CCCC3)c2O)c2ncccc2c1,,nucleotide incorporation,100 µM,45%
O=S(=O)(O)c1cccc2ccc(OS(=O)(=O)c3cccc4c(S(=O)(=O)Oc5ccc6cccc(S(=O)(=O)O)c6c5)cccc34)cc12,,RT activity,50 µM,83%
CCOC(CC(=O)OC)n1cc(C)c(=O)[nH]c1=O,,ELISA,10 µM,77%
COc1ccccc1-c1cn[nH]c1-c1ccc(O)cc1O,,nucleotide incorporation / fluorescence,100 µM,39%
O=C(Nc1ccc(S(=O)(=O)O)c2cccc(S(=O)(=O)O)c12)c1ccc(C(=O)Nc2ccc(S(=O)(=O)O)c3cccc(S(=O)(=O)O)c23)cc1,,RT activity,50 µM,8%
CCN1c2ccccc2N(C)C(=O)c2cnn(-c3ccccc3)c21,IIIB,nucleotide incorporation / radiometric,30 µM,45%
COc1ccc(-c2csc(N3C(=N)SC4C3=NN(c3ccccc3)C4c3ccc(Br)cc3)n2)cc1,,RT activity / absorbance,100 µg/mL,57.85%
CCCN1C(=O)c2ccnnc2Oc2c(C)cc(C)cc21,,ELISA,33 µM,56%
CCOc1cc(-c2nccc3cc(OC)c(OC)cc23)cc(OCC)c1OCC,,nucleotide incorporation,100 µM,65%
Nc1ccc(S(=O)(=O)O)c2ccccc12,,RT activity,50 µM,0%
O=C(O[C@@H]1O[C@@H]2COC(=O)c3cc(O)c(O)c(O)c3-c3c(cc(O)c(O)c3O)C(=O)O[C@H]([C@H]1OC(=O)c1cc(O)c(O)c(O)c1)[C@@H]2OC(=O)c1cc(O)c(O)c(O)c1)c1cc(O)c(O)c(O)c1,,nucleotide incorporation,20 µg/mL,0%
COc1c(O)cc(-c2cc(=O)c3c(O)c(OC)c(O)cc3o2)cc1O,,RT activity,200 µg/mL,88.1%
O=C(OCc1ccccc1)N1OCCC1n1cc(COCc2ccccc2)c(=O)[nH]c1=O,,RT activity,0.01 µM,100%
C[Si](C)(CCCNC(=O)c1cc(Cl)ccc1N)O[Si](C)(C)CCCNC(=O)c1cc(Cl)ccc1N,,,400 µM,20%
CCCOC(=O)CC(OCC)n1cc(C)c(=O)[nH]c1=O,,ELISA,10 µM,56%
O=C(OCc1ccccc1)N1OCCC1n1cc(COCc2cn(CCO)nn2)c(=O)[nH]c1=O,,RT activity,100 µM,100%
Cc1ccc2c(c1)[C@](O)(CC(=O)c1ccccc1O)C(=O)N2,,nucleotide incorporation / fluorescence,100 µM,12%
CC(NC(=S)Nc1nc2ccccc2s1)c1ccccc1,,ELISA / absorbance,50 µM,85.3%
O=C(NC1CC=C(c2cccc(C(F)(F)F)c2)CC1)c1ccc(Nc2ccnc3cc(C(F)(F)F)ccc23)cc1,,nucleotide incorporation,100 µM,29%
NCCS,,,1600 µM,32%
CC(=O)NC1C(O)OC(CO)C(O)C1OC1OC(C(=O)[O-])C(OC2OC(CO)C(O)C(OC3OC(C(=O)[O-])C(O)C(O)C3O)C2NC(C)=O)C(O)C1O.[Na+].[Na+],,RT activity,50 µg/mL,10%
COc1c(O)cc(-c2cc(=O)c3c(O)c(OC)c(O)cc3o2)c(O)c1OC,,RT activity,200 µg/mL,1.4%
O=C(CCCCCCCCCCC(=O)Nc1ccc(S(=O)(=O)O)c2cccc(S(=O)(=O)O)c12)Nc1ccc(S(=O)(=O)O)c2cccc(S(=O)(=O)O)c12,,RT activity,50 µM,87%
CSc1ncc(C(N)=O)c(Nc2ccc3cn[nH]c3c2)n1,,ELISA,1 µg/mL,62%
Cc1ccc2c(c1)Oc1nnc(Cl)cc1C(=O)N2,,ELISA,33 µM,36%
O=C(c1cc(Br)c(O)c(Br)c1)c1c(-c2cc(Br)c(O)c(Br)c2)c(-c2cc(Br)c(O)c(Br)c2)c(C(=O)c2cc(Br)c(O)c(Br)c2)n1CCc1ccc(O)cc1,,nucleotide incorporation / radiometric,0.4775 µM,95%
Nc1ccc(S(=O)(=O)O)c2cccc(S(=O)(=O)O)c12,,RT activity,50 µM,0%
CC1=C(CC/C(C)=C/CC/C(C)=C/CC/C(=C/C(=O)O)C(=O)O)C(C)(C)CCC1,,,1000 µg/mL,0%
C#CCOCc1cn(C2CCON2C(=O)OCc2ccccc2)c(=O)[nH]c1=O,,RT activity,1 µM,100%
C[n+]1ccc(-c2c3nc(c(-c4cc[n+](C)cc4)c4ccc([nH]4)c(-c4cc[n+](C)cc4)c4nc(c(-c5cc[n+](C)cc5)c5ccc2[nH]5)C=C4)C=C3)cc1,,ELISA,6 µM,24%
O=C(CCCCCCC(=O)Nc1ccc(S(=O)(=O)O)c2cccc(S(=O)(=O)O)c12)Nc1ccc(S(=O)(=O)O)c2cccc(S(=O)(=O)O)c12,,RT activity,50 µM,16%
CCCCCc1cc2c(=O)cc(C(=O)OC)[nH]c2c2c(=O)cc(C(=O)OC)[nH]c12,,nucleotide incorporation,100 µM,74%
O=C(O[C@@H]1[C@@H](c2c(O)cc(O)c3c2O[C@H](c2ccc(O)c(O)c2)[C@H](OC(=O)c2cc(O)c(O)c(O)c2)C3)c2c(O)cc(O)cc2O[C@@H]1c1ccc(O)c(O)c1)c1cc(O)c(O)c(O)c1,,nucleotide incorporation,20 µg/mL,0%

For reference, 8 entries again:

SMILES,strain or isolate,read by,dose,result
O=C(NC1CC=C(c2cccc(C(F)(F)F)c2)CC1)c1ccc(Nc2ccnc3cc(C(F)(F)F)ccc23)cc1,,nucleotide incorporation,100 µM,29%
NC(=O)c1cc2c([nH]c3ccccc32)c(-c2ccc(CO)o2)n1,,ELISA,65.36 µM,26.57%
CCOC(CC(=O)OC)n1ccc(=O)[nH]c1=O,,ELISA,10 µM,65%
Cc1cc(C)c(S(=O)(=O)Oc2ccc3cccc(S(=O)(=O)O)c3c2)c(C)c1S(=O)(=O)Oc1ccc2cccc(S(=O)(=O)O)c2c1,,RT activity,50 µM,87%
O=S(=O)(O)c1cccc2ccc(OS(=O)(=O)c3cccc4c(S(=O)(=O)Oc5ccc6cccc(S(=O)(=O)O)c6c5)cccc34)cc12,,RT activity,50 µM,83%
O=C(O)/C=C\C(=O)O.O=C(c1ccccc1)N1CCN(C(=O)c2ccc(Nc3ccnc4cc(C(F)(F)F)ccc34)cc2)CC1,,nucleotide incorporation,100 µM,36%
CCOC(CC(=O)OC)n1cc(C)c(=O)[nH]c1=O,,ELISA,10 µM,77%
CC1=C(CC/C(C)=C/CC/C(C)=C/CC/C(=C/C(=O)O)C(=O)O)C(C)(C)CCC1,,,1000 µg/mL,0%